Data as given in US6764837 (BOARD OF TRUSTEES OF THE UNIVERSITY OF ARKANSAS, dated 2004).

Target: constitutively active VirG protein (VirG^con) of A. tumefaciens (Agrobacterium tumefaciens) (UniProt P62722)
Experiment: cell-based or functional assay

With “A. tumefaciens RpoA (α subunit of RNA polymerase), untagged, expressed in E. coli MC4100 (from UniProt P0A4E3 1-336)” as the substance, how does the β-galactosidase activity, virB::lacZ in E. coli MC4100(pSY215) plus pPS1.3 read?
The β-galactosidase activity, virB::lacZ in E. coli MC4100(pSY215) plus pPS1.3 was 140 Miller Units.
